# The list shows a part of the results, in another mix than the full data. Some salts or complexes appear as unconnected parts, following the source record. The source made the active and inactive calls. Rule as the data show it: active = activity change below about -50%; inconclusive = between about -30% and that limit; inactive = weaker than that.
# Sequences of proteins named here, by UniProt entry; tags and fusion partners are left off.
# UniProt Q9GZU1, whole entry: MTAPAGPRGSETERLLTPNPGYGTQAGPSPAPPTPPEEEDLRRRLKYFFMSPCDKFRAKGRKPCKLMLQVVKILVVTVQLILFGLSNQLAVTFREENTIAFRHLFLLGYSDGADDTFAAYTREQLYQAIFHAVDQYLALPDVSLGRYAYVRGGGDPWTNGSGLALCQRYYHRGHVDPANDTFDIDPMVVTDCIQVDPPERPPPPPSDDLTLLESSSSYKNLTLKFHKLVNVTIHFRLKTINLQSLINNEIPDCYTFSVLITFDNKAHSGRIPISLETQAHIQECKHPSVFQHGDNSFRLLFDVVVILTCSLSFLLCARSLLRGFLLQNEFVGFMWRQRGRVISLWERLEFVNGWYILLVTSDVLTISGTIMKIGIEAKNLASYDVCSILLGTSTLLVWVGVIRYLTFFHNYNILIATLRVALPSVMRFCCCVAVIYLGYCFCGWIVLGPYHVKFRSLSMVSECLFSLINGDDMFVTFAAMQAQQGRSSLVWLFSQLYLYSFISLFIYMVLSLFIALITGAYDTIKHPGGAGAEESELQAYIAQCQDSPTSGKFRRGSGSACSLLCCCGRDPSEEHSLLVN
# Target: Mucolipin-1 (Homo sapiens) (UniProt Q9GZU1)
# Assay: qHTS for Inhibitors of the Human Mucolipin Transient Receptor Potential 1 (TRPML1);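 also: stimulus is agonist 54-4 at its EC80 concentration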
# Conditions: TRPML1-inducible cells, Ca2+ dye fluorescence, FDSS; hits give low values; inhibition of EC80 agonist-evoked calcium signal
# Description: Mutations of human Mucolipin transient receptor potential 1 (TRPML1) cause type IV mucolipidosis (ML4), a devastating neurodegenerative disease in young children. […] Currently, there is no treatment for ML4. […] Under physiological conditions, TRPMLs regulate membrane trafficking by transducing information about PI(3,5)P2 levels into changes in juxtaorganellar Ca2+, thereby triggering membrane fusion/fission events in the late endocytic pathways (endolysosomal trafficking). In addition, TRPML1 mediates release of Fe2+ from late endosomes and lysosomes, which is essential for cellular iron metabolism. Thus, impaired ion (Ca2+ and Fe2+) homeostasis underlies lysosomal dysfunction and ML4 phenotypes. In ML4 cells, the problem is twofold. First, defective Ca2+-dependent membrane trafficking due to TRPML1-deficiency causes accumulation of lipids and other bio-materials in the lysosome. The second strike comes from the lysosomal iron overload (due to impairment of TRPML1's Fe2+ conductivity), which converts the accumulated materials into the nondegradable (resistant to lysosomal degradation) lipofuscin (also called aging pigment) in the lysosome. Lipofuscin accumulation dramatically compromises the functions of lysosomes.
# Niemann-Pick type C (NPC) disease is another lysosome storage disease (LSD) with severe neurodegeneration during the childhood. Currently, there is no cure for NPC. […] Thus, TRPML1 is likely to be an essential regulator of lysosome ion homeostasis. We specifically hypothesize that stimulating TRPML1's Fe2+/Ca2+ channel activity in the lysosome using synthetic agonists can alleviate neurodegeneration associated with ML4 or NPC.
# To this end, a high throughput screen was developed in a miniaturized format to screen against the Molecular Libraries Small Molecule Repository (MLSMR) to find small molecules that act either as inhibitors or agonist against the TRPML1 channel.
# NIH Chemical Genomics Center [NCGC]
# NIH Molecular Libraries Probe Centers Network [MLPCN]
# Assay Submitter (PI): Haoxing Xu, University of Michigan Ann Arbor
# TRPML1-DL cells are dissociated from flasks, counted and, brought up to a density of 500,000 cells per mL of media containing a 1X Tet inducer. Using a Multidrop Combi, 3 uL of this cell solution is dispensed to each well of a 1536 TC treated, black, clear bottom hi base plate for a final cell density of 1,500 cells per well. The assay plates are incubated overnight (approximately 16 hours) at 37 degrees C and 5% CO2. Using a Multidrop Combi, 2 uL of ABD Ca8 no wash dye plus quencher is added to each well. The assay plates incubate at room temperature in the dark for 45-90 minutes. The assay plate is read on the FDSS using the following protocol: 10 second baseline read, 23 nL of compounds and controls are added using 1536 pintool, agonist read for 110 seconds, 1 uL EC80 addition (4 uM final 54-4 diluted in media), antagonist read for 110 seconds.
# % is scaled to controls: 0 for no effect and ±100 for the full control effect.
row,Structure (SMILES),"activity change, negative = inhibition"
1,O=C(NCC1(N2CCOCC2)CCCCC1)c1ccc([N+](=O)[O-])cc1,inactive: -3.01%
2,CC(C)(C)OC(=O)N1CCC(N(C(=O)c2ccccc2)c2ccc(Cl)cc2)CC1,inactive: -6.12%
3,N#Cc1ccc(C(=O)NCC2(N3CCCCC3)CCCCC2)cc1,inactive: 4.81%
4,O=C(NCC1(N2CCOCC2)CCCCC1)c1ccccc1[N+](=O)[O-],inactive: -21.8%
5,CCOC(=O)C(CC)C1=NC(C)(C)Cc2ccccc21.O=[N+]([O-])c1cc([N+](=O)[O-])c(O)c([N+](=O)[O-])c1 (stereo not drawn),inactive: 8.78%
6,c1ccc(CN2CCC(Nc3ccccc3)CC2)cc1,inactive: 61.5%
7,O=C(NCC1(N2CCOCC2)CCCCC1)c1ccccc1,inactive: -19.3%
8,Cc1cc(N(CCCl)CCCl)ccc1C=O,inactive: 19.7%
9,CCCN1CCC(Nc2cc(OC)cc(OC)c2)CC1,inactive: 4.8%
10,CN(C)C1(CNC(=O)c2cccc(C#N)c2)CCCCC1,inactive: -0.0534%
11,O=C(NCC1(N2CCOCC2)CCCCC1)c1cc(Br)ccc1Cl,inactive: -1.81%
12,COc1cc(C(=O)NCC2(N3CCOCC3)CCCCC2)cc(OC)c1C,inactive: 0.557%
13,COc1ccc(C(=O)NCC2(N3CCOCC3)CCCCC2)cc1OC,inactive: -21.1%
14,O=c1[nH]c2ccccc2n1C1CCN(C(c2ccnc3ccccc23)c2nnnn2C2CCCC2)CC1 (stereo not drawn),inactive: -1.24%
15,O=c1[nH]c2ccccc2n1C1CCN(C(c2cccs2)c2nnnn2C2CCCCC2)CC1 (stereo not drawn),inactive: 0.371%
16,N/C(=N\O)c1c(N)no[n+]1[O-],inactive: 8.61%
17,COc1cccc(C(c2nnnn2C(C)(C)C)N2CCC(n3c(=O)[nH]c4ccccc43)CC2)c1OC (stereo not drawn),inactive: 57.9%
18,CCOC(=O)N1CCC(Nc2ccc(C)cc2)CC1,inactive: 0.119%
19,O=C(OC1CN2CCC1CC2)C1c2ccccc2C=Cc2ccccc21 (stereo not drawn),inactive: 6.14%
20,CCc1cc(C(=O)NCC2(N3CCCCC3)CCCCC2)sc1C,inactive: -7.04%
21,O=C(O)c1cccc(Nc2c([N+](=O)[O-])cc([N+](=O)[O-])cc2[N+](=O)[O-])c1,inactive: -3.66%
22,O=c1[nH]c2ccccc2n1C1CCN(C(c2cccs2)c2nnnn2C2CCCC2)CC1 (stereo not drawn),inactive: -11%

row,Structure (SMILES),"activity change, negative = inhibition"
1,CCOc1ncccc1C(=O)NCC1(N2CCOCC2)CCCCC1,inactive: -9.57%
2,CN1CCC(Nc2ccc(F)c(Cl)c2)CC1,inactive: 11.9%
3,CCCOc1ccc(C(=O)NCC2(N(C)C)CCCCC2)cc1,inactive: -22.1%
4,CC(C)(C)OC(=O)N1CCC(Nc2ccccc2)CC1,inactive: 6.66%
5,O=C(O)C1(Nc2ccccc2)CCN(Cc2ccccc2)CC1,inactive: -2.86%
6,CCC(CO)(C(=O)OC1CN2CCC1CC2)c1ccccc1 (stereo not drawn),inactive: 27.6%
7,COc1cc(OC)cc(C(=O)NCC2(N3CCOCC3)CCCCC2)c1,inactive: -14.5%
8,COc1cc(C(=O)NCC2(N3CCOCC3)CCCCC2)cc(OC)c1OC,inactive: 2.12%
9,CN1CCC(Nc2ccc(Cl)cc2)CC1,inactive: 2.49%
10,COc1cc(OC)cc(C(=O)NCC2(N3CCCCC3)CCCCC2)c1,inactive: -19.1%
11,CC(=O)N(c1ccccc1)C1CCNCC1,inactive: 11.3%
12,COc1cccc(C(c2nnnn2C2CCCCC2)N2CCC(n3c(=O)[nH]c4ccccc43)CC2)c1OC (stereo not drawn),inactive: -2.28%
13,CN(C)C1(CNC(=O)c2ccc(C(C)(C)C)cc2)CCCCC1,inactive: -22.7%
14,CCC(c1nnnn1C1CCCCC1)N1CCC(n2c(=O)[nH]c3ccccc32)CC1 (stereo not drawn),inactive: 9.11%
15,Cc1ccc(NC2(C#N)CCN(Cc3ccccc3)CC2)cc1,inactive: -2.42%
16,Cc1ccc(C(=O)NCC2(N3CCCCC3)CCCCC2)o1,inactive: -2.58%
17,Cc1ccc(Nc2c([N+](=O)[O-])cc([N+](=O)[O-])cc2[N+](=O)[O-])cc1,inactive: -0.321%
18,Fc1ccccc1NC1CCN(Cc2ccccc2)CC1,inactive: 33.4%
19,Cc1ccccc1NC1(C#N)CCN(Cc2ccccc2)CC1,inactive: -28.8%
20,CCN1CCC(Nc2cccc(F)c2)CC1,inactive: 4.68%
21,CC(C)(C)c1ccc(C(=O)NCC2(N3CCOCC3)CCCCC2)cc1,inactive: 20.8%
22,O=C(NCC1(N2CCCCC2)CCCCC1)c1ccco1,inactive: 4.53%

row,Structure (SMILES),"activity change, negative = inhibition"
1,Cn1c(=O)[nH]cc(N(CCCl)CCCl)c1=O,inactive: 1.22%
2,CN(C)c1ccc(C(=O)NCC2(N3CCCCC3)CCCCC2)cc1,inactive: 2.98%
3,Cc1ccccc1C(=O)NCC1(N(C)C)CCCCC1,inactive: 6.93%
4,CCOc1ccc(C)cc1CN(CCCl)CCCl,inactive: 2.63%
5,O=C(NCC1(N2CCOCC2)CCCCC1)c1ccc(Cl)cc1,inactive: -8.29%
6,O=C(NCC1(N2CCCCC2)CCCCC1)c1ccc(F)cc1,inactive: -13.2%
7,O=P1(N(CCCl)CCCl)SCCCS1,inactive: -3.38%
8,CCCCOc1ccc(C(=O)NCC2(N3CCOCC3)CCCCC2)cc1,inactive: -19.1%
9,COc1ccc(NC2CCN(CCc3ccccc3)CC2)c(OC)c1,inactive: 26.5%
10,CCOC(=O)N1CCC(Nc2ccc(F)cc2)CC1,inactive: 43.1%
11,COc1ccccc1C(=O)NCC1(N2CCOCC2)CCCCC1,inactive: 2.76%
12,O=c1[nH]c2ccccc2n1C1CCN(C(c2ccccc2)c2nnnn2C2CCCCC2)CC1 (stereo not drawn),inactive: -2.12%
13,COc1cc(C(=O)NCC2(N(C)C)CCCCC2)ccc1OC(F)F,inactive: -18.8%
14,CCOC(=O)N1CCC(Nc2cccc(C)c2)CC1,inactive: -11.7%
15,O=C(NCC1(N2CCCCC2)CCCCC1)c1ccc(=O)[nH]c1,inactive: 4.12%
16,O=C(NCC1(N2CCCCC2)CCCCC1)c1cccs1,inactive: -15.9%
17,CCCCn1nnnc1C(CC)N1CCC(n2c(=O)[nH]c3ccccc32)CC1 (stereo not drawn),inactive: 20.1%
18,COc1ccc(C(=O)NCC2(N3CCCCC3)CCCCC2)cc1,inactive: 2.15%
19,CCC(c1nnnn1C1CCCC1)N1CCC(n2c(=O)[nH]c3ccccc32)CC1 (stereo not drawn),inactive: -18.3%
20,CC(C)(C)OC(=O)N1CCC(N(C(=O)c2ccccc2)c2ccc(F)cc2)CC1,inactive: 10.4%
21,COc1ccc(C(=O)NCC2(N3CCCCC3)CCCCC2)c(OC)c1OC,inactive: 16.4%
22,CSc1ccccc1C(=O)NCC1(N2CCCCC2)CCCCC1,inactive: 13.6%

row,Structure (SMILES),"activity change, negative = inhibition"
1,Cc1cccc(NC2(C#N)CCN(Cc3ccccc3)CC2)c1,inactive: -12.1%
2,O=C(NCC1(N2CCOCC2)CCCCC1)c1cc2ccccc2o1,inactive: -4.95%
3,O=c1[nH]c2ccccc2n1C1CCN(C(c2ccccc2OC(F)(F)F)c2nnnn2C2CCCCC2)CC1 (stereo not drawn),inactive: 32.5%
4,O=C(NCC1(N2CCCCC2)CCCCC1)c1ccc(Cl)nc1,inactive: 2.76%
5,Cc1cc(C)cc(N(C(=O)c2ccccc2)C2CCN(C(=O)OC(C)(C)C)CC2)c1,inactive: 17.4%
6,CCOC(=O)N1CCC(Nc2ccc(OC)cc2)CC1,inactive: -14.4%
7,O=C(OC1CN2CCC1CC2)C1c2ccccc2Oc2ccccc21 (stereo not drawn),inactive: 4.99%
8,O=c1[nH]c2ccccc2n1C1CCN(C(c2cc3ccccc3o2)c2nnnn2C2CCCCC2)CC1 (stereo not drawn),inactive: 19.8%
9,O=C(NCC1(N2CCCCC2)CCCCC1)c1ccc(Cl)s1,inactive: -11.8%
10,O=C1C(O)=C([N+](=O)[O-])C(=O)C(O)=C1[N+](=O)[O-],inactive: 16%
11,COc1ccc(Cl)cc1C(=O)NCC1(N2CCOCC2)CCCCC1,inactive: -18%
12,COc1ccc(CN(CCCl)CCCl)cc1Cl,inactive: 25.9%
13,O=[N+]([O-])c1cc([N+](=O)[O-])c(OC2CCCCC2O)c([N+](=O)[O-])c1 (stereo not drawn),inactive: 10.6%
14,CN(C)c1cccc(C(=O)NCC2(N3CCCCC3)CCCCC2)c1,inactive: 1.78%
15,CC(C)c1ccc(NC2CCN(C(=O)OC(C)(C)C)CC2)cc1,inactive: 8.75%
16,COc1cc(OC)c(C(=O)NCC2(N(C)C)CCCCC2)cc1OC,inactive: 19.3%
17,O=C(NCC1(N2CCOCC2)CCCCC1)c1cc(F)c(F)cc1Cl,inactive: 0.465%
18,CCC(c1nnnn1C(C)(C)C)N1CCC(n2c(=O)[nH]c3ccccc32)CC1 (stereo not drawn),inactive: 3.87%
19,COc1ccc2c(c1O)-c1c(O)c(OC)cc3c1[C@H](C2)[N+](C)(C)CC3.O=[N+]([O-])c1cc([N+](=O)[O-])c([O-])c([N+](=O)[O-])c1[O-],inactive: 2.93%
20,O=C(NCC1(N2CCCCC2)CCCCC1)c1cncc(Br)c1,inactive: 2.01%
21,CN1CCC(Nc2cccc(F)c2)CC1,inactive: 18%
22,O=C(OC1CN2CCC1CC2)c1ccc([N+](=O)[O-])cc1 (stereo not drawn),inactive: 2.26%

row,Structure (SMILES),"activity change, negative = inhibition"
1,Cc1ccc(C(=O)NCC2(N(C)C)CCCCC2)o1,inactive: 26.9%
2,CCCCOc1ccccc1C(=O)NCC1(N2CCOCC2)CCCCC1,inactive: 16%
3,CCCOc1ccc(C(=O)NCC2(N(C)C)CCCCC2)cc1OC,inactive: 1.88%
4,O=C(NCC1(N2CCOCC2)CCCCC1)c1ccccc1Br,inactive: 19.4%
5,O=[N+]([O-])c1cc([N+](=O)[O-])c(Nc2ccc(Cl)cc2)c([N+](=O)[O-])c1,inactive: 16.4%
6,O=C(NCC1(N2CCCCC2)CCCCC1)c1ccc(OC(F)F)cc1,inactive: 6.72%
7,CSc1ccc(C(=O)NCC2(N3CCOCC3)CCCCC2)cc1,inactive: 16.8%
8,CCOc1ccc(C(=O)NCC2(N3CCOCC3)CCCCC2)cc1,inactive: -0.496%
9,O=C(NCC1(N2CCCCC2)CCCCC1)c1cccc([N+](=O)[O-])c1,inactive: 24%
10,CCN1CCC(Nc2ccc(Cl)cc2)CC1,inactive: 21.3%
11,N#CC1(Nc2ccccc2)CCN(CCc2ccccc2)CC1,inactive: -2.29%
12,O=c1[nH]c2ccccc2n1C1CCN(C(c2ccccc2OC(F)(F)F)c2nnnn2C2CCCC2)CC1 (stereo not drawn),inactive: -8.58%
13,CCCOc1cccc(C(=O)NCC2(N3CCOCC3)CCCCC2)c1,inactive: 9.27%
14,O=C(NCC1(N2CCCCC2)CCCCC1)c1cccc(C(F)(F)F)c1,inactive: -15.2%
15,O=[N+]([O-])c1cc([N+](=O)[O-])c(NCC2CCS(=O)(=O)C2)c([N+](=O)[O-])c1 (stereo not drawn),inactive: 1.74%
16,CN1CCN(CCOC(=O)C(O)(c2ccccc2)c2ccccc2)CC1,inactive: -2.02%
17,CC(C)c1ccc(C(=O)NCC2(N3CCOCC3)CCCCC2)cc1,inactive: -12%
18,COc1ccc(NC2CCN(C(=O)OC(C)(C)C)CC2)cc1,inactive: -3.86%
19,COc1cc(C(=O)NCC2(N3CCCCC3)CCCCC2)ccc1OC(F)F,inactive: 12.4%
20,O=C(NCC1(N2CCOCC2)CCCCC1)c1cc(=O)[nH]c2ccccc12,inactive: 6.39%

# — PubChem BioAssay AID624415 (National Center for Advancing Translational Sciences (NCATS), 2012)
